{"source": "paper PMC12138661", "about": "“Anti-Trypanosoma cruzi Effect of Fatty Acids from Porcelia macrocarpa Is Related to Interactions of Cell Membranes at Different Microdomains as Assessed Using Langmuir Monolayers” (ACS Omega, 2025)", "key": {"[1]": {"system": "amastigote forms of T. cruzi", "experiment": "In vitro EC50 against intracellular amastigote forms of T. cruzi in peritoneal macrophages (Giemsa, infection index)", "assay_type": "cell-based, Trypanosoma cruzi", "conditions": "selectivity index, NCTC CC50 vs amastigote EC50", "procedure": "After collecting and counting the cells, they were seeded in Nunc brand 16-well plates and incubated for 18 h at 37 °C in an incubator containing 5% CO2. Nonadherent cells were then removed by washing with RPMI-1640 medium. Subsequently, the cells were infected with trypomastigotes at a ratio of 10:1 per well during an incubation period of 4 h. The mixture of compounds, previously diluted in series, was added and incubated for 48 h to determine the EC50 against amastigotes. After the incubation phase, the glass slides were fixed using MeOH for 5 min and then stained with Giemsa for 7 min. This procedure allowed for observation under a light microscope. The infection index was obtained in 200 macrophages/slide according to the formula: infected macrophages × number of amastigotes/total number of macrophages. Benznidazole was used as a standard drug. ,"}, "[2]": {"system": "trypomastigote forms of T. cruzi (strain Y)", "experiment": "In vitro EC50 against trypomastigote forms of T. cruzi (resazurin viability)", "assay_type": "cell-based, Trypanosoma cruzi", "conditions": "selectivity index, NCTC CC50 vs trypomastigote EC50", "procedure": "Trypomastigote forms (strain Y) of T. cruzi were obtained from Swiss mice (Mus musculus) previously infected intraperitoneally. The trypomastigote forms were used to infect LLC-MK2 cell cultures consisting of Macaca mulatta kidney epithelial cells (ATCC CCL 7) grown in RPMI-1640 medium containing 2% fetal bovine serum (FBS). The infected cell cultures were maintained in an incubator at 37 °C with 5% CO2, as previously described. , To evaluate the 50% effective concentration (EC50) against the trypomastigote forms of T. cruzi, mixture 1–10 was serially solubilized in the RPMI-1640 culture medium in 96-well plates. Subsequently, the trypomastigote forms of T. cruzi were added, at a concentration of 1 × 10^6 trypomastigotes per well. After an incubation period of 24 h at 37 °C with 5% CO2, to determine the viability of trypomastigotes, 20 μL of 10% Alamar Blue (resazurin) was added, followed by a new incubation of the plates for 20 h under the same conditions. At the end of the tests, the plates were read by absorption using a microplate spectrophotometer (Filter Max F5 Multi-Mode Microplate Reader) at 570 nm, as previously described. Benznidazole was used as a positive control, while cells not subjected to treatment were used as a negative control."}}, "data": [{"compound": "O=C(Cn1ccnc1[N+](=O)[O-])NCc1ccccc1", "note": "[benznidazole]", "values": [{"measurement": "SI AMA", "setting": "[1]", "result": ">210.5"}, {"measurement": "SI AMA", "setting": "[1]; listed as Benznidazole", "result": "> 210"}, {"measurement": "SI TRYPO", "setting": "[2]", "result": ">51.2"}, {"measurement": "SI TRYPO", "setting": "[2]; listed as Benznidazole", "result": "> 51"}]}]}
